Experimental data from EP1073463B1.

Target: human CD3 on Jurkat cells (human) (UniProt P07766)
Assay: cell-based or functional assay

“UCHT1-CRM9 immunotoxin (chemical conjugate of UCHT1 and CRM9) (from UniProt P00588 33-567)” was tested, and the Protein synthesis (% of controls), Jurkat cells, 1 x 10^-10 M, no serum (% of controls) was 5.
